Pooled drug test results. Numbers come from NIAID ChemDB, via PubChem.

Common to all: tests on isolated targets

ICn: concentration for n% inhibition. Fold resistance: result on the changed form divided by that on wild type. Conditions beyond the fields shown may differ between rows. An empty or dashed field is not shown. Percent inhibition refers to the dose given; in toxicity tests it is the harm to the cells.

structure | agent | mutations | protein | method | endpoint | tested at | result
COC(=O)c1ccc(C(=O)NCc2cccc(C(F)(F)F)c2)c(O)c1O | HIV |  | Integrase | strand transfer | IC50 |  | <0.5 µM
O=[N+]([O-])c1ccc(S(=O)(=O)Nc2ccc(-c3nc4ccccc4[nH]3)cc2)cc1 | HIV-1 |  | gp120 + CD4 | ELISA / entry | IC50 |  | 0.02815 µM
CNC(=O)[C@@H](Cc1ccccc1)NP(=O)(O)OC[C@H]1O[C@@H](n2cc(C)c(=O)[nH]c2=O)C[C@@H]1N=[N+]=[N-] | HIV-1 |  | Rev:RRE | fluorescence | Ki |  | 0.0085 µM
CCCNC(=O)OCCCCC(C)(C)CN(C[C@@H](O)[C@H](Cc1ccccc1)NC(=O)O[C@H]1CO[C@H]2OCC[C@H]21)S(=O)(=O)c1ccc2c(c1)OCO2 | HIV-1 |  | Protease | fluorescence | Ki |  | <0.001 µM
CCOC(=O)c1c(NC(=O)c2ccc(Cl)cc2)sc2c1CCCCC2 | HIV-1 |  | RNase H | RNase H / fluorescence | IC50 |  | 72.58 µM
CCCOC(=O)NCCCCC(C)(C)CN(C[C@@H](O)[C@H](Cc1ccccc1)NC(=O)O[C@H]1CO[C@H]2OCC[C@H]21)S(=O)(=O)c1ccc2c(c1)OCO2 | HIV-1 |  | Protease | fluorescence | Ki |  | <0.001 µM
COCOCC1=C2[C@H](CO[C@@H]3O[C@@H](CO)[C@@H](O)[C@H](O)[C@@H]3OCOC)C[C@@H](C)[C@]3(C[C@@H](c4ccoc4)OC3=O)[C@H]2CCC1 | HIV-1 |  | RNase H | RNase H / luminescence | inhibition | 100 µM | 26%
C[n+]1ccc(-c2c3nc(c(-c4cc[n+](C)cc4)c4ccc([nH]4)c(-c4cc[n+](C)cc4)c4nc(c(-c5cc[n+](C)cc5)c5ccc2[nH]5)C=C4)C=C3)cc1 | HIV-1 |  | gp120 |  | inhibition | 60 µg/mL | 28.4%
CC(C)(C)c1ccc(S(=O)(=O)Nc2ccc(Cc3nc4ccccc4[nH]3)cc2)cc1 | HIV-1 |  | gp120 + CD4 | ELISA / entry | IC50 |  | 0.02174 µM
COc1ccc(C(=O)Nc2sc3c(c2C(=O)Nc2ccccn2)CCCCC3)cc1OC | HIV-1 | p66wt/p52C280A HIV-1 RT | RNase H | RNase H / fluorescence | IC50 |  | >50 µM
CN(C)C(=O)NCCCC(C)(C)CN(C[C@@H](O)[C@H](Cc1ccccc1)NC(=O)O[C@H]1CO[C@H]2OCC[C@H]21)S(=O)(=O)c1cccc(N)c1 | HIV-1 |  | Protease | fluorescence | Ki |  | <0.001 µM
CC(C)=CCN1Cc2cccc3[nH]c(=S)n(c23)C[C@@H]1C | HIV |  | Reverse transcriptase | nucleotide incorporation | Ki |  | 0.41 µM
COC(=O)c1ccc(C(=O)NCc2ccc(C(F)(F)F)cc2)c(O)c1O | HIV |  | Integrase | strand transfer | IC50 |  | <2 µM
Cc1cn([C@H]2CC[C@@H](COP(=O)(O)OP(=O)(O)OP(=O)(O)O)O2)c(=O)[nH]c1=O | HIV | RT-V75I F77L F116Y Q151M | Reverse transcriptase | nucleotide incorporation / radiometric | Ki |  | 0.49 µM
CC(C)OC(=O)NCCCCC(C)(C)CN(C[C@@H](O)[C@H](Cc1ccccc1)NC(=O)O[C@@H]1CO[C@@H]2OCC[C@@H]21)S(=O)(=O)c1ccc(N)cc1 | HIV-1 |  | Protease | fluorescence | Ki |  | <0.001 µM
O=[N+]([O-])c1ccccc1S(=O)(=O)Nc1cccc(-c2nc3ccccc3[nH]2)c1 | HIV-1 |  | gp120 + CD4 | ELISA / entry | IC50 |  | 0.02676 µM
O=C(Nc1sc2c(c1C(=O)Nc1ccccn1)CCCCC2)c1ccc(F)cc1 | HIV-1 |  | RNase H | RNase H / fluorescence | IC50 |  | 4.72 µM
CCCNC(=O)OCCCC(C)(C)CN(C[C@@H](O)[C@H](Cc1ccccc1)NC(=O)O[C@H]1CO[C@H]2OCC[C@H]21)S(=O)(=O)c1ccc2c(c1)OCO2 | HIV-1 |  | Protease | fluorescence | Ki |  | <0.001 µM
CC1=C(CCC(=O)O)c2cc3nc(cc4[nH]c(cc5[nH]c(cc1n2)c(C)c5CCC(=O)O)c(CCC(=O)O)c4C)C(CCC(=O)O)=C3C | HIV-1 |  | gp120 |  | inhibition | 60 µg/mL | 8.5%
O=C(CC1CCCCC1)Nc1sc2c(c1C(=O)Nc1ccccn1)CCCCC2 | HIV-1 |  | RNase H | RNase H / fluorescence | IC50 |  | 67.1 µM
CC(C)OC(=O)NCCCC(C)(C)CN(C[C@@H](O)[C@H](Cc1ccccc1)NC(=O)O[C@H]1CO[C@H]2OCC[C@H]21)S(=O)(=O)c1cccc(N)c1 | HIV-1 |  | Protease | fluorescence | Ki |  | <0.001 µM
Nc1nc2c(ncn2[C@H]2CO[C@@H](COP(=O)(O)OP(=O)(O)OP(=O)(O)O)O2)c(=O)[nH]1 | HIV | RT-K65R K103N | Reverse transcriptase | radiometric | fold resistance |  | 0.81
COc1ccc(-c2cc(=O)c3c(O)c(OC)c(OC)cc3o2)cc1 | HIV-1 |  | RNase H | RNase H / fluorescence | inhibition | 100 µM | 20%
CC(C)OC(=O)NCCCCC(C)(C)CN(C[C@@H](O)[C@H](Cc1ccccc1)NC(=O)O[C@H]1CO[C@H]2OCC[C@H]21)S(=O)(=O)c1ccc(N)cc1 | HIV-1 |  | Protease | fluorescence | Ki |  | <0.001 µM
CC1=C(CCC(=O)O)c2cc3nc(cc4[nH]c(cc5[nH]c(cc1n2)c(CCC(=O)O)c5CC(=O)O)c(CCC(=O)O)c4C)C(CCC(=O)O)=C3C | HIV-1 |  | gp120 |  | inhibition | 60 µg/mL | 14.7%
CCOC(=O)c1c(NC(=O)c2ccccc2F)sc2c1CCCCC2 | HIV-1 |  | RNase H | RNase H / fluorescence | IC50 |  | 25.2 µM
COc1ccc(S(=O)(=O)N(C[C@@H](O)[C@H](Cc2ccccc2)NC(=O)O[C@@H]2CO[C@@H]3OCC[C@@H]32)CC(C)(C)CCC#N)cc1 | HIV-1 |  | Protease | fluorescence | Ki |  | <0.001 µM
COC(=O)c1ccc(C(=O)NCc2ccc([N+](=O)[O-])cc2)c(O)c1O | HIV |  | Integrase | strand transfer | IC50 |  | <0.5 µM
CC(C)(CCCCNS(C)(=O)=O)CN(C[C@@H](O)[C@H](Cc1ccccc1)NC(=O)OC1COCOC1)S(=O)(=O)c1ccc(N)cc1 | HIV-1 |  | Protease | fluorescence | Ki |  | <0.001 µM
Nc1ccn([C@H]2CC[C@@H](COP(=O)(O)OP(=O)(O)OP(=O)(O)O)O2)c(=O)n1 | HIV | RT-V75I F77L F116Y Q151M | Reverse transcriptase | nucleotide incorporation / radiometric | Ki |  | 42 µM
CCOC(=O)NCCCCC(C)(C)CN(C[C@@H](O)[C@H](Cc1ccccc1)NC(=O)O[C@@H]1CO[C@@H]2OCC[C@@H]21)S(=O)(=O)c1ccc2c(c1)OCO2 | HIV-1 |  | Protease | fluorescence | Ki |  | <0.001 µM
C=CC1=C(C)C2=NC1=CC1=NC(=Cc3[n-]c4c(c3C)=C([O-])[C@H](C(=O)OC)C=4C3=NC(=C2)[C@@H](C)[C@@H]3CCC(=O)OC/C=C(\C)CCCC(C)CCCC(C)CCCC(C)C)C(CC)=C1C.[Mg+2] | HIV-1 |  | gp120 |  | inhibition | 60 µg/mL | 46%
O=[N+]([O-])c1ccc(S(=O)(=O)Nc2ccc(Cc3nc4ccccc4[nH]3)cc2)cc1 | HIV-1 |  | gp120 + CD4 | ELISA / entry | IC50 |  | 0.02516 µM
CC(C)(CCCCOC(=O)NN)CN(C[C@@H](O)[C@H](Cc1ccccc1)NC(=O)O[C@H]1CO[C@H]2OCC[C@H]21)S(=O)(=O)c1ccc2c(c1)OCO2 | HIV-1 |  | Protease | fluorescence | Ki |  | <0.001 µM
O=[N+]([O-])c1ccccc1S(=O)(=O)Nc1ccc(Cc2nc3ccccc3[nH]2)cc1 | HIV-1 |  | gp120 + CD4 | ELISA / entry | IC50 |  | 0.0215 µM
CC(C)OC(=O)NCCCCC(C)(C)CN(C[C@@H](O)[C@H](Cc1ccccc1)NC(=O)O[C@H]1CO[C@H]2OCC[C@H]21)S(=O)(=O)c1ccc2c(c1)OCO2 | HIV-1 |  | Protease | fluorescence | Ki |  | <0.001 µM

Repeating the first 5 entries:

structure,agent,mutations,protein,method,endpoint,tested at,result
COC(=O)c1ccc(C(=O)NCc2cccc(C(F)(F)F)c2)c(O)c1O,HIV,,Integrase,strand transfer,IC50,,<0.5 µM
O=[N+]([O-])c1ccc(S(=O)(=O)Nc2ccc(-c3nc4ccccc4[nH]3)cc2)cc1,HIV-1,,gp120 + CD4,ELISA / entry,IC50,,0.02815 µM
CNC(=O)[C@@H](Cc1ccccc1)NP(=O)(O)OC[C@H]1O[C@@H](n2cc(C)c(=O)[nH]c2=O)C[C@@H]1N=[N+]=[N-],HIV-1,,Rev:RRE,fluorescence,Ki,,0.0085 µM
CCCNC(=O)OCCCCC(C)(C)CN(C[C@@H](O)[C@H](Cc1ccccc1)NC(=O)O[C@H]1CO[C@H]2OCC[C@H]21)S(=O)(=O)c1ccc2c(c1)OCO2,HIV-1,,Protease,fluorescence,Ki,,<0.001 µM
CCOC(=O)c1c(NC(=O)c2ccc(Cl)cc2)sc2c1CCCCC2,HIV-1,,RNase H,RNase H / fluorescence,IC50,,72.58 µM